As usually defined, the IC50 is the concentration that inhibits the measured activity by half.

The chains behind the UniProt entries cited, without tags or fusion partners. Residues count along the entry.
UniProt A2E7Z2, 13-216 limits assumed: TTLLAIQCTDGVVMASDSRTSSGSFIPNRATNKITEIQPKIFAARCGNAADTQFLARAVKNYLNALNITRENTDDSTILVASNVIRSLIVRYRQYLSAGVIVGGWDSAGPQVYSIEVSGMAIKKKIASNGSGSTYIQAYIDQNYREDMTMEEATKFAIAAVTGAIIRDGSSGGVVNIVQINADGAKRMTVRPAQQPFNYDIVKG
UniProt A2DD57, 54-256 limits assumed: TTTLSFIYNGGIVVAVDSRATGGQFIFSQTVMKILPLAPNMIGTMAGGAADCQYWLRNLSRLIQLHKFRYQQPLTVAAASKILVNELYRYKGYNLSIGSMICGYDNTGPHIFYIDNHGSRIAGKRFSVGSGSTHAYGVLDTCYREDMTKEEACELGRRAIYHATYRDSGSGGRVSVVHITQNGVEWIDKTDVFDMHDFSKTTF
UniProt A2F716, 12-224 limits assumed: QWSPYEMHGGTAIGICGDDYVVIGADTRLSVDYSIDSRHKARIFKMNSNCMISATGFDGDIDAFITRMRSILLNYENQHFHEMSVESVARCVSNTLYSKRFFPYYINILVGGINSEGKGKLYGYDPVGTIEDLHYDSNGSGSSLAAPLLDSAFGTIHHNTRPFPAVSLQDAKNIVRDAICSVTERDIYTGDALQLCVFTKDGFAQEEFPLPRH

Results on three compounds are retold here after article PMC12691669, “Inhibitors of the 20S proteasome β5 subunit as potent and selective agents against Trichomonas vaginalis” (Antimicrobial Agents and Chemotherapy, 2025).

Experiment [1] has as its system T. vaginalis Tv20S proteasome β2 subunit. The experiment in a line: In vitro proteasome assay, Ac-FRSR-amc substrate. Conditions: recombinant Tv20S, mean ± SD of three experiments; for IC50: read-out: Tv20S proteasome inhibition of β2 subunit (IC50). The experiment is classed as biochemical, Trichomonas vaginalis. As to the method: (§1) The T. vaginalis proteasome was expressed in recombinant form as previously described ([27]). Briefly, Spodoptera frugiperda cells were co-infected with three baculovirus vectors carrying the T. vaginalis genes for the 7 α-subunits, 7 β-subunits, and the Ump-1 chaperone, respectively. The resulting proteasome complex was purified from cell lysates via streptavidin column and size exclusion chromatography and stored at −80°C. Purified human c20S proteasome and recombinant human proteasome activator PA28α ([21]) were obtained from Bio-Techne and stored at −80°C. Dilutions of the test agents were transferred to 384-well plates (Greiner Bio-One) in triplicate wells using an Echo 650 Acoustic Liquid Handler (Beckman Coulter). Six replicate plates were prepared for each compound for testing with three T. vaginalis-optimized substrates and three human-optimized substrates. After dispensing, plates were sealed and stored at −20°C. The following fluorescent substrates and final substrate concentrations were used to assay subunit activities of the T. vaginalis proteasome (Tv20S) ([28]) or the human constitutive proteasome (c20S) ([19], [52]): Ac-RYFD-amc (Genscript) at 100 µM for Tv20S β1 subunit, Ac-FRSR-amc (Genscript) at 20 µM for Tv20S β2 subunit, Ac-GWYL-amc (Genscript) at 20 µM for Tv20S β5 subunit, z-LLE-amc (R&D Systems) at 80 µM for c20S β1 subunit, z-VLR-amc (AdipoGen Life Sciences) at 30 µM for c20S β2 subunit, and suc-LLVY-amc (R&D Systems) at 65 µM for c20S β5 subunit. Substrates and proteasomes were diluted in an assay buffer consisting of HEPES pH 7.5 and 1 mM DTT. For the human proteasome assays, 2 nM c20S was incubated at room temperature with 200 nM PA28α for 1 h to activate the complex prior to addition to the 384-well plates containing the substrate-inhibitor mixtures. […] Both proteasomes were added to the wells at a 1 nM final assay concentration. Fluorescence was measured over 4 h at 360 nm excitation and 460 nm emission on a Biotek Synergy HTX plate reader.

Experiment [2] addresses T. vaginalis Tv20S proteasome β1 subunit (Trichomonas vaginalis, UniProt A2E7Z2). In words: In vitro proteasome assay, Ac-RYFD-amc substrate. In kind it is biochemical. Conditions: recombinant Tv20S, mean ± SD of three experiments. The protocol:
as §1

Experiment [3] concerns the target T. vaginalis Tv20S proteasome β5 subunit (Trichomonas vaginalis, UniProt A2DD57+A2F716). Conditions: read-out: Tv20S proteasome inhibition of β5 subunit (IC50); recombinant Tv20S, mean ± SD of three experiments.

Turning to `CCCCCC(=O)N[C@@H](Cc1cccnc1)C(=O)N[C@@H](CCCC)C(=O)N[C@@H](Cc1ccccc1)C(=O)[C@@]1(C)CO1`, the “Tv20S proteasome inhibition of β2 subunit (IC50)” value in experiment [1] is listed as “No inhibition”. Moreover, the “Tv20S proteasome inhibition of β1 subunit (IC50)” value in experiment [2] is listed as “Activation”. The IC50 in experiment [3] was found to be 34.4 nM.

For the compound `COc1ccc(C[C@@H](C(=O)N[C@@H](CC(=O)N2CCCC2)C(=O)N[C@@H](Cc2ccc(F)cc2)C(=O)N[C@@H](Cc2ccc(F)cc2F)C(=O)[C@@]2(C)CO2)N2CCCC2=O)cc1`, the results for the IC50 in experiment [1] and in experiment [3] were 3550 nM and 2.98 nM, respectively. Moreover, in experiment [2], the “Tv20S proteasome inhibition of β1 subunit (IC50)” value is given as “Activation”.

`CCCC[C@H](NC(=O)[C@H](CC(=O)N1CCCC1)NC(=O)[C@H](Cc1ccc(OC)cc1)N1CCCC1=O)C(=O)N[C@@H](Cc1ccc(F)cc1F)C(=O)[C@@]1(C)CO1` [compound 45]: the IC50 in experiment [1] was 1590 nM; in experiment [3], 2.93 nM. For the same compound, in experiment [2], the “Tv20S proteasome inhibition of β1 subunit (IC50)” value is listed as “Activation”.
